Reference: patent publication US10139406B2, “Alkyl quinolones as biomarkers of pseudomonas aeruginosa infection and uses thereof” (priority 2013, dated 2018)

assay: LLOQ determination by serial dilutions of AQ mix spiked into blank urine/plasma (LC-MS/MS); parameters: species or system human; details: spiked blank plasma

Row | Structure (SMILES) | Calculated LLOQ in plasma [pmol/L]
1 | CCCCCCCCCc1cc(O)c2ccccc2n1 [NHQ, 2-nonyl-4-hydroxyquinoline] | 10
2 | CCCCCCCc1cc(O)c2ccccc2[n+]1[O-] [HQNO, 2-heptyl-4-hydroxyquinoline N-oxide] | 30
3 | CCCCCCCc1[nH]c2ccccc2c(=O)c1O [C7-PQS, 2-heptyl-3-hydroxy-4(1H)-quinolone] | 100
4 | CCCCCCCCCc1cc(O)c2ccccc2[n+]1[O-] [NQNO, 2-nonyl-4-hydroxyquinoline N-oxide] | 40

same assay, conditions: spiked blank urine

Row | Structure (SMILES) | Calculated LLOQ in urine [pmol/L]
5 | CCCCCCCCCc1cc(O)c2ccccc2n1 [NHQ, 2-nonyl-4-hydroxyquinoline] | 10
6 | CCCCCCCc1cc(O)c2ccccc2[n+]1[O-] [HQNO, 2-heptyl-4-hydroxyquinoline N-oxide] | 30
7 | CCCCCCCc1[nH]c2ccccc2c(=O)c1O [C7-PQS, 2-heptyl-3-hydroxy-4(1H)-quinolone] | 50
8 | CCCCCCCCCc1cc(O)c2ccccc2[n+]1[O-] [NQNO, 2-nonyl-4-hydroxyquinoline N-oxide] | 50
